Measured values published in patent publication US20240166684A1 (priority 2021, published 2024).

Legend:
[1] = test system: ATP1A1; test: Western blot of steady-state ATP1A1 levels in differentiated ReN VM cells; format: cell-based, human; settings: ReN VM cells expressing mutant CG-resistant ATP1A1 (r/r)
[2] = test system: ATP1A2; test: Western blot of steady-state ATP1A2 levels in differentiated ReN VM cells; format: cell-based, human; settings: ReN VM ATP1A1 r/r cells
[3] = test system: ATP1A3; test: Western blot of steady-state ATP1A3 levels in differentiated ReN VM cells; format: cell-based, human; settings: ReN VM ATP1A1 r/r cells
[4] = test system: PrP^C; test: Western blot of steady-state PrP^C levels in differentiated ReN VM cells; settings: ReN VM cells expressing mutant CG-resistant ATP1A1 (r/r)

Structure (SMILES)	change of ATP1A1 levels in CG-resistant cells [1]	change of ATP1A2 levels in CG-resistant cells [2]	change of ATP1A3 levels in CG-resistant cells [3]	change of PrP^C levels in CG-resistant cells [4]
COC1C[C@H](O[C@H]2CC[C@]3(C)C4CC[C@]5(C)[C@@H](C6=CC(=O)OC6)[C@@H](OC(C)=O)C[C@]5(O)[C@@H]4CC[C@@H]3C2)OC(C)C1=O (stereo partly drawn) [I-3, 4′-dehydro-oleandrin]	precluded the changes in steady-state levels of ATP1A1	prevented changes	prevented changes	no exemplary compound I-3-mediated reduction in PrP^C levels was observed
COC1C[C@H](O[C@H]2CC[C@]3(C)C4CC[C@]5(C)[C@@H](C6=CC(=O)OC6)[C@@H](OC(C)=O)C[C@]5(O)[C@@H]4CC[C@@H]3C2)OC(C)[C@@H]1O (stereo partly drawn) [oleandrin, acetic acid [(3S,5R,10S,13R,14S,16S,17′R)-14-hydroxy-3-[[(2R,4S,5S,6S)-5-hydroxy-4-methoxy-6-methyl-2-tetrahydropyranyl]oxy]-10,13-dimethyl-17-(5-oxo-2H-furan-3-yl)-1,2,3,4,5,6,7,8,9,11,12,15,16,17-tetradecahydrocyclopenta[a]phenanthren-16-yl] ester]	neither the changes in ATP1A1 nor in PrP^C levels were observed	–	–	neither the changes in ATP1A1 nor in PrP^C levels were observed
